Data taken from paper PMC9089915, “The SUMO E3 ligase activity of ORF45 determines KSHV lytic replication” (PLoS Pathogens, 2022).

B1: GST-SUMO2^G92A/G93A (natural protein)
chain: not shown
notes: also called SUMO2^G/A; SUMO G/A mutant; source: purified by Glutathione Sepharose 4B
B2: GST-SUMO1 (natural protein)
chain: not shown
notes: source: purified by Glutathione Sepharose 4B
B3: GST-SUMO2 (natural protein)
chain: not shown
notes: as for B2

biological target: T1, purified His-tagged KSHV ORF45 protein (KSHV); assay: pull-down; GST only, GST-SUMO1, GST-SUMO2 (or SUMO G/A mutants) on glutathione-Sepharose beads mixed with 0.5 μg purified His-tagged ORF45 in vitro for 30 min; Coomassie staining and IB with anti-ORF45; conditions: both partners purified
T1 construct: also called recombinant ORF45; recombinant KSHV ORF45; source: recombinant, purified

Binder	binding result
B1	binds
B2	binds
B3	binds
